Measurements reported in PubChem BioAssay AID1259414 (Drosophila RNAi Screening Center, 2018).
The deposit covers about 24,000 reagents; shown is an unselected part of those that have a named target and a result. Of all reagents, about 1,210 (5%) are marked active. 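Inactive calls also include excluded dsRNAs with several or no targets, genes unexpressed in JW18, and well A1, regardless of score.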 Reagents against one gene are numbered here. No sequences are given here.

- Screen: 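Fly genes that alter Wolbachia amount inside host cells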 (primary screen)
- Cell system: Drosophila JW18 cells infected with Wolbachia
- Reagents: long dsRNA against Drosophila genes, 0.25 µg dsRNA per well of a 384-well plate
- Timing: 5 days
- Conditions: cells persistently infected with Wolbachia before knock-down; no added drug
- Measurement: 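Imaged fluorescence in situ signal for Wolbachia 23S rRNA per DAPI-counted host cell, given as a robust z-score within each plate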
- Scale: Wolbachia per cell robust z: higher = more Wolbachia per host cell than the plate typical
- Call rule: 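Hit when robust z is 1.5 or more, or -1.5 or less, in at least two of three replicates; excludes dsRNAs with several or no targets, genes not expressed in JW18 and well A1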

ca (claret) #1 — Wolbachia per cell robust z, rep 1: -0.146; Wolbachia per cell robust z, rep 2: -0.874; Wolbachia per cell robust z, rep 3: -0.756; Call: inactive
ca (claret) #2 — Wolbachia per cell robust z, rep 1: 0.837; Wolbachia per cell robust z, rep 2: 0.938; Wolbachia per cell robust z, rep 3: 0.638; Call: inactive
ca (claret) #3 — Wolbachia per cell robust z, rep 1: 0.216; Wolbachia per cell robust z, rep 2: -0.362; Wolbachia per cell robust z, rep 3: 0.982; Call: inactive
CG8746 — Wolbachia per cell robust z, rep 1: 0.479; Wolbachia per cell robust z, rep 2: 0.641; Wolbachia per cell robust z, rep 3: 0.0657; Call: inactive
hob (hobbit) #1 — Wolbachia per cell robust z, rep 1: -0.147; Wolbachia per cell robust z, rep 2: 0.107; Wolbachia per cell robust z, rep 3: 0.121; Call: inactive
hob (hobbit) #2 — Wolbachia per cell robust z, rep 1: -0.23; Wolbachia per cell robust z, rep 2: -0.128; Wolbachia per cell robust z, rep 3: -0.674; Call: inactive
Eaf6 (Esa1-associated factor 6) — Wolbachia per cell robust z, rep 1: -1.04; Wolbachia per cell robust z, rep 2: -0.974; Wolbachia per cell robust z, rep 3: -0.731; Call: inactive
GluRIIE (Glutamate receptor IIE) #1 — Wolbachia per cell robust z, rep 1: 0.109; Wolbachia per cell robust z, rep 2: 0.0854; Wolbachia per cell robust z, rep 3: -1.98; Call: inactive
GluRIIE (Glutamate receptor IIE) #2 — Wolbachia per cell robust z, rep 1: -0.391; Wolbachia per cell robust z, rep 2: 1.35; Wolbachia per cell robust z, rep 3: 1.2; Call: inactive
GluRIIE (Glutamate receptor IIE) #3 — Wolbachia per cell robust z, rep 1: 0.466; Wolbachia per cell robust z, rep 2: 0.18; Wolbachia per cell robust z, rep 3: 0.59; Call: inactive
CG11695 #1 — Wolbachia per cell robust z, rep 1: 1.06; Wolbachia per cell robust z, rep 2: -0.413; Wolbachia per cell robust z, rep 3: -2.4; Call: inactive
CG11695 #2 — Wolbachia per cell robust z, rep 1: -4.53; Wolbachia per cell robust z, rep 2: 0.227; Wolbachia per cell robust z, rep 3: -6.73; Call: active
CG12182 — Wolbachia per cell robust z, rep 1: 0.053; Wolbachia per cell robust z, rep 2: -1.55; Wolbachia per cell robust z, rep 3: -0.247; Call: inactive
Gba1b (Glucocerebrosidase 1b) — Wolbachia per cell robust z, rep 1: -0.788; Wolbachia per cell robust z, rep 2: -0.941; Wolbachia per cell robust z, rep 3: -0.251; Call: inactive
CG17327 — Wolbachia per cell robust z, rep 1: 1.22; Wolbachia per cell robust z, rep 2: -1.28; Wolbachia per cell robust z, rep 3: -1.69; Call: inactive
dre4 — Wolbachia per cell robust z, rep 1: -0.207; Wolbachia per cell robust z, rep 2: -3.31; Wolbachia per cell robust z, rep 3: -0.569; Call: inactive

Limited to “Wolbachia per cell robust z, rep 1”, for 2 of the entries above:
CG11695 #2	-4.53
CG12182	0.053
